In PMC11320570 (2024) one finds Kd data, which are given here for 1 molecule.

The assay concerns the target R3N_2D3. Briefly: ELISA. (In general: ELISA stands for enzyme-linked immunosorbent assay.)

B1: soluble E80 protein of DENV-1 (domain or fragment)
chain: not shown
In turn, B1 came in with a Kd of 0.037 nM.

In general, Kd refers to the free concentration of one partner at which half of the binding sites on the other are occupied at equilibrium, for simple one-to-one binding. High values mean weaker binding, low ones tighter binding.
